Measured values from several laboratories, pooled; numbers as filed in NIAID ChemDB.

All rows: tests in culture; agent: HIV-1; endpoint: EC90

ECn: concentration that inhibits the pathogen or its effect by n%. Neighbouring rows are from separate reports. An empty or dashed field is not shown.

| smiles | cell line | mutations | read by | strain or isolate | conditions | value |
|---|---|---|---|---|---|---|
| CC[C@H]1OC(=O)[C@H](C)[C@@H](O[C@H]2C[C@@](C)(OC)[C@@H](O)[C@H](C)O2)[C@H](C)[C@@H](O[C@@H]2O[C@H](C)C[C@H](N(C)C)[C@H]2O)[C@](C)(O)C[C@@H](C)/C(=N\OCOCCOC)[C@H](C)[C@@H](O)[C@]1(C)O | PBMC |  | RT activity | LAV |  | >1000 µM |
| O=C1N(Cc2cccc(OCc3ccccc3)c2)[C@H](Cc2ccccc2)[C@H](O)[C@@H](O)[C@@H](Cc2ccccc2)N1Cc1cccc(OCc2ccccc2)c1 | MT-2 |  | hybridisation | RF |  | >70 µM |
| Cc1cn([C@H]2C[C@H](C#N)[C@@H](CO)O2)c(=O)[nH]c1=O | ATH8 |  | cytopathic effect | IIIB |  | >2.5 µg/mL |
| CC(C)(C)NC(=O)[C@@H]1C[C@@H]2CCCC[C@@H]2CN1C[C@@H](O)[C@H](Cc1ccccc1)NC(=O)[C@H](CC(N)=O)NC(=O)c1ccc2ccccc2n1 | PBMC | PR-L10I K20R M36I/V P63L/S L90M | p24 | BR58 (PR L10I K20R M36I/V P63L/S L90M) |  | 0.021 µM |
| C=CCN(C(=O)OCc1ccccc1)C1CCN(CCC(Cn2cnc3ccccc32)c2ccccc2)CC1 | MAGI + MAGI-CCR5 |  | β-galactosidase | BaL |  | >3 µM |
| N#CN=C1N(Cc2cccc(OCc3ccccc3)c2)[C@H](Cc2ccccc2)[C@H](O)[C@@H](O)[C@@H](Cc2ccccc2)N1Cc1cccc(OCc2ccccc2)c1 | MT-2 |  | hybridisation | RF |  | >67.3 µM |
| Nc1ncnc2c1ncn2[C@H]1OC[C@@](F)(CCP(=O)(O)O)[C@H]1F | PBMC |  | MTT | LAI |  | 80 µM |
| CCCCN1C(=O)[C@@H]([C@H](O)C2CCCCC2)NC(=O)C12CCN(Cc1ccc(Oc3ccc(C(=O)O)cc3)cc1)CC2 | PBMC |  | p24 / ELISA | BaL |  | 0.016 µM |
| CCC[C@@]1(CCc2ccccc2)CC(O)=C([C@H](CC)c2cccc(NS(=O)(=O)c3ccc(C(F)(F)F)cn3)c2)C(=O)O1 | PBMC |  | p24 | 6 clinical isolates AZT-resistant |  | 0.04 µM |
| CC[C@H](C)[C@H](C(=O)O)N1C[C@H](CN2CCC(c3cc(Cc4ccc(C)cc4)nn3CC)CC2)[C@@H](c2cccc(F)c2)C1 | HeLa |  | β-galactosidase | BaL | 50% human serum | 0.011 µM |
| COC(=O)[C@H](C)NP(=O)(OC[C@@H]1CC[C@H](n2ccc(N)nc2=O)O1)Oc1ccccc1 | MM + M/M |  | antigen | BaL |  | 0.48 µM |
| CC(C)[C@H](NC(=O)OCc1ccccc1)C(=O)N[C@@H](Cc1ccc(O)cc1)[C@@H](O)[C@H](O)[C@H](Cc1ccc(O)cc1)NC(=O)[C@@H](NC(=O)OCc1ccccc1)C(C)C | MT-2 |  | plaque count / virus yield | RF |  | 0.4 µg/mL |
| Cc1cn([C@H]2C=C[C@@H](CO)O2)c(=O)[nH]c1=O | MT-4 |  | cytopathic effect / p24 / trypan blue | IIIB |  | 2.7 µM |
| Cc1cn([C@H]2C[C@H](N=[N+]=[N-])[C@@H](CO)O2)c(=O)[nH]c1=O | Primary T lymphocytes | L74V | p24 / ELISA |  |  | 0.2 µM |
| CC(C)CN(C[C@@H](O)[C@H](Cc1ccccc1)NC(=O)[C@@H](NC(=O)CNCc1cccc(F)c1)C(C)(C)C)S(=O)(=O)c1cccc(N)c1 | MT-2 |  | virus yield | RF |  | 0.0041 µM |
| Nc1ccccn1 | CEM-T4 |  | MTT |  |  | >20 µM |
| C=C(C)C12C[C@@H](COC(C)=O)[C@@]3(OO1)[C@@H]1[C@H]2O[C@H](O)CCCCCC[C@@H](C)[C@H]2[C@H](C)[C@H](OCc4ccccc4)[C@@](O)([C@H](O)[C@@]4(CO)O[C@@H]14)[C@@H]23 | MT-4 |  | p24 / ELISA | NL4-3 |  | 0.0004 µM |
| CCCCCCCCCCCCCCC[C@@H](O)[C@@H](N)CO | TZM-bl + HL2/3 |  | luciferase / cell fusion |  |  | >14 µM |
| Cc1cn([C@H]2C[C@H](N=[N+]=[N-])[C@@H](CO)O2)c(=O)[nH]c1=O | MOLT4 + MOLT-4 |  | p24 / ELISA | IIIB |  | <0.001 µg/mL |
| O=C1N(Cc2ccc(CO)cc2)[C@H](Cc2ccccc2)[C@H](O)[C@@H](O)[C@@H](Cc2ccccc2)N1Cc1ccc(CO)cc1 | MT-2 |  | plaque count / virus yield | Clinical isolate E |  | 0.07 µg/mL |
| C=C(C)C12C[C@@H](COCc3ccccc3)[C@@]3(OO1)[C@@H]1[C@H]2O[C@H](O)CCCCCC[C@@H](C)[C@H]2[C@H](C)[C@H](OCc4ccccc4)[C@@](O)([C@H](O)[C@@]4(CO)O[C@@H]14)[C@@H]23 | MT-4 |  | p24 / ELISA | NL4-3 |  | 0.00041 µM |
| CC(C)(C)NC(=O)[C@@H]1CN(Cc2cccnc2)CCN1C[C@@H](O)C[C@@H](Cc1ccccc1)C(=O)N[C@H]1c2ccccc2C[C@H]1O | PBMC |  | p24 / ELISA | BaL |  | 0.075 µM |
| CC[C@H]1OC(=O)[C@H](C)[C@@H](O[C@H]2C[C@@](C)(OC)[C@@H](O)[C@H](C)O2)[C@H](C)[C@@H](O[C@@H]2O[C@H](C)C[C@H](N(C)C)[C@H]2O)[C@](C)(O)C[C@@H](C)C(=O)[C@H](C)[C@@H](O)[C@]1(C)O | CEM |  | RT activity | LAV-1 |  | 107 µg/mL |
| Cc1cn([C@H]2C[C@H](N=[N+]=[N-])[C@@H](CO)O2)c(=O)[nH]c1=O | PBMC |  | p24 | Isolate 410 |  | 6.6 µM |
| Cc1ccc(-c2ccc3c(c2)C=C(C(=O)Nc2ccc(C[N+](C)(C)C4CCOCC4)cc2)CCC3)cc1 | PBMC |  | p24 / ELISA | BaL |  | 0.332 µM |
| CCC[C@@H](c1ccc(C(F)(F)F)cc1)N1CCN(C2(C)CCN(C(=O)c3c(C)ncnc3C)CC2)C[C@@H]1C | PBMC |  |  | RU570 Clinical isolates |  | 0.00043 µM |
| Cc1ccnc2c1NC(=O)c1cccnc1N2C1CC1 | HT4 + HT4-6C |  | plaque count | BRU |  | 0.45 µM |
| COCc1c(CNCC(C)C)cc2cc(OC)c(OC)cc2c1-c1ccc(OC)c(OC)c1 | U87 (CD4+ CCR5+) + U87 |  | luciferase | CONB/pNL43E-Luc+ |  | 4.38 µg/mL |
| Cc1nnc(C(=O)NC(C)(C)c2nc(C(=O)NCc3ccc(F)cc3)c(O)c(=O)n2C)o1 | ACH2 + TZM-bl |  | luciferase | SF162 |  | 0.00127 µM |
| O=C1N(Cc2ccc3[nH]c(=O)[nH]c3c2)[C@H](Cc2ccccc2)[C@H](O)[C@@H](O)[C@@H](Cc2ccccc2)N1Cc1ccc2[nH]c(=O)[nH]c2c1 | MT-2 |  | hybridisation | RF |  | >65 µM |
| O=C1OCc2c1cc1cc(O)c(O)cc1c2-c1ccc(O)c(O)c1 | U87 (CD4+ CCR5+) + U87 |  | luciferase | CONB/pNL43E-Luc+ |  | 17.6 µg/mL |
| Cc1cn([C@H]2C[C@H](N=[N+]=[N-])[C@@H](CO)O2)c(=O)[nH]c1=O | MM + M/M |  | antigen | BaL |  | 0.02 µM |
| CCn1nc(Cc2cccc3ccccc23)cc1C1CCN(C[C@H]2CN([C@@H](C(=O)O)C(C)(C)C)C[C@@H]2c2cccc(F)c2)CC1 | HeLa |  | β-galactosidase | BaL |  | <0.00014 µM |
| O=C(O)/C=C/c1ccc[c]([Sb](=[O])([OH])[OH])c1 | MAGI |  | β-galactosidase | NL4-3 |  | 2.7 µM |
| CC(=O)N[C@H](C(=O)N[C@@H](Cc1ccc(OCc2ccccc2)cc1)[C@@H](O)[C@H](O)[C@H](Cc1ccc(OCc2ccccc2)cc1)NC(=O)[C@@H](NC(C)=O)C(C)C)C(C)C | MT-2 |  | plaque count / virus yield | RF |  | 0.3 µg/mL |
| CC(C)CN(C[C@@H](O)[C@H](Cc1ccccc1)NC(=O)[C@@H](NC(=O)CNCc1cccc(F)c1)C(C)(C)C)S(=O)(=O)c1ccc(N)cc1 | MT-2 |  | virus yield | IIIB |  | 0.0088 µM |
| Nc1ccn([C@H]2CC[C@@H](CO)O2)c(=O)n1 | MM + M/M |  | antigen | BaL |  | 0.01 µM |
| CC(C)Nc1cccnc1N1CCN(C(=O)c2cc3cc(NS(C)(=O)=O)ccc3[nH]2)CC1 | PBMC |  | p24 | 410 clinical isolates AZT-resistant |  | >10 µM |
| CC(C)Nc1cccnc1N1CCN(C(=O)c2cc3cc(NS(C)(=O)=O)ccc3[nH]2)CC1 | PBMC |  | p24 | Isolate 458 |  | 7.7 µM |
| CC[C@@H](C)[C@H](C(=O)O)N1C[C@H](CN2CCC(c3cc(Cc4ccc5ccccc5c4)nn3CC)CC2)[C@@H](c2cccc(F)c2)C1 | HeLa |  | β-galactosidase | BaL | 50% human serum | 0.3 µM |
| Cc1cn([C@H]2C[C@H](N=[N+]=[N-])[C@@H](CO)O2)c(=O)[nH]c1=O | PBMC |  | cytopathic effect / MTT |  |  | 0.02 µM |
| NCCCCN(CC1NC[C@@H]2CC[C@H]1N2CC[C@H](NC(=O)C1CCC(F)(F)CC1)c1ccccc1)[C@H]1CCCc2cccnc21 | MAGI |  | visual reading | BaL |  | >100 µM |
| CCn1nc(Cc2ccc(OC(C)(C)C)cc2)cc1C1CCN(C[C@H]2CN([C@@H](C(=O)O)C(C)C)C[C@@H]2c2cccc(F)c2)CC1 | HeLa |  | β-galactosidase | BaL | 50% human serum | 0.1 µM |
| C=C(C)C12C[C@@H](COCc3ccccc3)[C@@]3(OO1)[C@@H]1[C@H]2OCCCCCCC[C@@H](C)[C@H]2[C@H](C)[C@H](OCc4ccccc4)[C@@](O)([C@H](O)[C@@]4(CO)O[C@@H]14)[C@@H]23 | MT-4 |  | p24 / ELISA | NL4-3 |  | 0.0016 µM |
| Nc1nc2c(ncn2[C@H]2OC[C@@](F)(CCP(=O)(O)O)[C@H]2F)c(=O)[nH]1 | PBMC |  | MTT | LAI |  | 95 µM |
| CC(C)[C@H](NC(=O)OCc1ccccc1)C(=O)N[C@@H](Cc1ccccc1)[C@@H](O)[C@H](O)[C@H](Cc1ccccc1)NC(=O)[C@@H](NC(=O)OCc1ccccc1)C(C)C | MT-2 |  | plaque count / virus yield | RF |  | 0.09 µg/mL |
| COC(=O)[C@H](C)NP(=O)(OC[C@@H]1C=C[C@H](n2cc(C)c(=O)[nH]c2=O)O1)Oc1ccccc1 | MM + M/M |  | antigen | BaL |  | 0.03 µM |

For reference, 4 entries again:

smiles	cell line	mutations	read by	strain or isolate	conditions	value
O=C1OCc2c1cc1cc(O)c(O)cc1c2-c1ccc(O)c(O)c1	U87 (CD4+ CCR5+) + U87		luciferase	CONB/pNL43E-Luc+		17.6 µg/mL
Cc1cn([C@H]2C[C@H](C#N)[C@@H](CO)O2)c(=O)[nH]c1=O	ATH8		cytopathic effect	IIIB		>2.5 µg/mL
C=CCN(C(=O)OCc1ccccc1)C1CCN(CCC(Cn2cnc3ccccc32)c2ccccc2)CC1	MAGI + MAGI-CCR5		β-galactosidase	BaL		>3 µM
CC(C)[C@H](NC(=O)OCc1ccccc1)C(=O)N[C@@H](Cc1ccccc1)[C@@H](O)[C@H](O)[C@H](Cc1ccccc1)NC(=O)[C@@H](NC(=O)OCc1ccccc1)C(C)C	MT-2		plaque count / virus yield	RF		0.09 µg/mL